PubChem BioAssay AID624099 | ICCB-Longwood – 2012
Shown is one part, drawn at random, of about 21,000 reagents tested. 497 of all reagents (2.4%) were called active. 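Higher z means weaker E2 silencing; only reporter increases were scored, and knock-downs that hurt cell survival may mask genuine repressor factors.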 A number with no mark means an inactive call.

- Assay: 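Human genes that papillomavirus E2 requires to repress the HPV18 LCR promoter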 (primary screen)
- System: human C33A cervical carcinoma cells (HPV-negative) stably expressing BPV1 E2 and an HPV18 LCR luciferase reporter
- Reagent: siRNA pool against human genes, 40 nM
- Timing: 72 h
- Measurement: 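HPV18 LCR reporter light per well, converted to plate-wise z-scores that exclude control wells, and averaged over triplicate plates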
- Scale: mean z-score and z-score: higher = stronger reporter signal, weaker E2 silencing
- Active means: 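Hit if mean z-score reaches 2 and two or more of three replicate z-scores also reach 2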

{"target": "RNF214 (GeneID 257160)", "mean z-score": -0.1, "z-score, replicate A": -0.35, "z-score, replicate B": 0.19, "z-score, replicate C": -0.13}
{"target": "SPOCK3 (GeneID 50859)", "mean z-score": -0.12, "z-score, replicate A": -0.51, "z-score, replicate B": 0.14, "z-score, replicate C": 0}
{"target": "CLK1 (GeneID 1195)", "mean z-score": 0.26, "z-score, replicate A": 0.54, "z-score, replicate B": -0.28, "z-score, replicate C": 0.53}
{"target": "CXCL2 (GeneID 2920)", "mean z-score": -0.75, "z-score, replicate A": -0.72, "z-score, replicate B": -0.78, "z-score, replicate C": -0.75}
{"target": "PLXNB3 (GeneID 5365)", "mean z-score": -0.2, "z-score, replicate A": -0.23, "z-score, replicate B": -0.31, "z-score, replicate C": -0.05}
{"target": "GPATCH2 (GeneID 55105)", "mean z-score": 0.42, "z-score, replicate A": 0.4, "z-score, replicate B": 0.69, "z-score, replicate C": 0.17}
{"target": "GPRASP3 (GeneID 80823)", "mean z-score": 0, "z-score, replicate A": 0.24, "z-score, replicate B": -0.16, "z-score, replicate C": -0.09}
{"target": "LOC387939 (retired record) (GeneID 387939)", "mean z-score": -0.04, "z-score, replicate A": -0.15, "z-score, replicate B": 0.05, "z-score, replicate C": -0.01}
{"target": "IQCB1 (GeneID 9657)", "mean z-score": -1.04, "z-score, replicate A": -1.08, "z-score, replicate B": -1.15, "z-score, replicate C": -0.89}
{"target": "CSNK1G1 (GeneID 53944)", "mean z-score": -0.27, "z-score, replicate A": 0.08, "z-score, replicate B": -0.62, "z-score, replicate C": -0.26}
{"target": "SLC2A3 (GeneID 6515)", "mean z-score": 1.38, "z-score, replicate A": 1.45, "z-score, replicate B": 1.48, "z-score, replicate C": 1.21}
{"target": "LOC387974 (retired record) (GeneID 387974)", "mean z-score": -0.65, "z-score, replicate A": -0.48, "z-score, replicate B": -0.64, "z-score, replicate C": -0.82}
